# Data taken from the supplement of paper PMC3842684.
# Tests used:
# [1] = tested on: P. falciparum NF54-pfs16-GFP early (I-III) stage gametocytes; details: stage: early (I-III) gametocyte; incubation 72 h
# Experimental: (§1)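 MMV Malaria Box compounds active in the primary screen were retested in dose-response against P. falciparum NF54-pfs16-GFP early (I-III) or late (IV-V) gametocytes, 72 h, 37 C, viable gametocytes counted by confocal imaging; IC50 from an unconstrained 4-parameter fit. Compounds with no plateau have no IC50 and are left out.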
# [2] = tested on: P. falciparum NF54-pfs16-GFP late (IV-V) stage gametocytes; details: stage: late (IV-V) gametocyte; incubation 72 h
# Experimental: as §1
SMILES,"IC50, viable gametocyte number [1]","IC50, viable gametocyte number [2]"
CCC1(C)CC(CCNCc2ccccc2O)(c2ccc(C)cc2)CCO1 (stereo not drawn),1.39 µM,0.676 µM
c1ccc2c(NCCCCCCNc3c4c(nc5ccccc35)CCCC4)c3c(nc2c1)CCCC3,1.43 µM,
